# Laboratory results taken from patent publication US8574608B2, “Bactericidal silver surfactant delivery into coating and polymer compositions” (Eastern Michigan Universtity, priority 2007, dated 2013).
# Experiments:
# P. aeruginosa ATCC 15442 = test: Challenge of P. aeruginosa by AgAOT doped polyurethane coatings on microscope slides
# E. coli ATCC 11229 = test: Challenge of E. coli by AgAOT doped polyurethane coatings on microscope slides; conditions: for CFU/mL of E. coli at 24 hours / CFU/mL of E. coli at 12 hours: PU microscope slide coating, triplicate
# E. coli [1] = test: E. coli challenged by silver surfactants in commercial acrylic paint; format: cell-based, Escherichia coli; conditions: 24 h contact time; for surviving bacteria (growth): commercial solvent borne acrylate paint coating; on surviving bacteria (growth): key: A minus sign (−) denotes no growth; a plus sign (+) denotes confluent growth; a capital P (P) denotes particle growth
# E. coli [2] = test: E. coli challenged by silver surfactants in laboratory acrylic paint; format: cell-based, Escherichia coli; conditions: laboratory solvent borne acrylate paint coating, 24 h contact time; further: key: A minus sign (−) denotes no growth; a plus sign (+) denotes confluent growth; a capital P (P) denotes particle growth
# [3] = tested on: Staphylococcus aureus ATCC 6538; test: S. aureus challenge by household surfaces sprayed with AgAOT; conditions: for CFU/mL, Avg / CFU/mL, Run #1-#2: sprayed 0.06% silver solution
# S. aureus = S. aureus challenged by silver surfactants in laboratory acrylic clearcoat; format: cell-based, Staphylococcus aureus; conditions: 24 h contact time; for surviving bacteria (growth): laboratory solvent borne acrylate clearcoat; on surviving bacteria (growth): key: A minus sign (−) denotes no growth; a plus sign (+) denotes confluent growth; a capital P (P) denotes particle growth
# [4] = tested on: Escherichia coli ATCC 11229; test: E. coli challenge by fabrics sprayed with AgAOT; conditions: for CFU/mL, Average / CFU/mL, Run #1-#4: sprayed 0.06% w/w AgAOT/isopropanol; for effect on E. coli: silk, 0.24% silver solution sprayed
# [5] = 0.031% weight w/w Ag in coating (first column 0.0574)
# [6] = 0.061% weight w/w Ag in coating (first column 0.113)
# [7] = 0.122% weight w/w Ag in coating (first column 0.226)
substance,measurement,setting,value
silver bis[2-ethylhexyl]sulfosuccinate,killing the P. aeruginosa,"P. aeruginosa ATCC 15442; 0.0012% weight Ag relative to overall coating weight, 24 h exposure",effective at killing
same,overall level effective as a bactericide,P. aeruginosa ATCC 15442; 24 hours of exposure,0.006 % weight silver relative to coating weight
same,level that appears to kill all of the P. aeruginosa,P. aeruginosa ATCC 15442; both 12 and 24 h exposure,≥ 0.031 % weight Ag relative to coating weight
same,level giving complete killing of the E. coli,E. coli ATCC 11229; 12 h exposure,above 0.031 % weight Ag relative to overall coating weight
same,overall level effective as a bactericide,E. coli ATCC 11229; 12 hours of exposure,0.06 % weight silver relative to coating weight
same,CFU/mL of E. coli at 24 hours,E. coli ATCC 11229; 0.012% weight w/w Ag in coating (first column 0.0226),"0, 0, 0 CFU/mL"
same,CFU/mL of E. coli at 12 hours,E. coli ATCC 11229; [5],"0, 0, 0 CFU/mL"
same,CFU/mL of E. coli at 24 hours,E. coli ATCC 11229; [5],"0, 0, 0 CFU/mL"
same,CFU/mL of E. coli at 12 hours,E. coli ATCC 11229; [6],"0, 0, 0 CFU/mL"
same,CFU/mL of E. coli at 24 hours,E. coli ATCC 11229; [6],"0, 0, 0 CFU/mL"
same,CFU/mL of E. coli at 12 hours,E. coli ATCC 11229; [7],"0, 0, 0 CFU/mL"
same,CFU/mL of E. coli at 24 hours,E. coli ATCC 11229; [7],"0, 0, 0 CFU/mL"
same,reduction of the number of viable bacteria,"E. coli ATCC 11229; at and above 0.012% weight Ag relative to overall coating weight, 24 h",3 logs
same,silver level partially effective,E. coli [1]; commercial acrylic paint,0.03 % Ag w/w
same,surviving bacteria (growth),E. coli [1]; 0.0012 weight % Ag in coating,+
same,surviving bacteria (growth),E. coli [1]; 0.003 weight % Ag in coating,+
same,surviving bacteria (growth),E. coli [1]; 0.006 weight % Ag in coating,+
same,surviving bacteria (growth),E. coli [1]; 0.012 weight % Ag in coating,+
same,surviving bacteria (growth),E. coli [1]; 0.03 weight % Ag in coating,P
same,surviving bacteria (growth),E. coli [1]; 0.06 weight % Ag in coating,−
same,surviving bacteria (growth),E. coli [1]; 0.12 weight % Ag in coating,−
same,surviving bacteria (growth),E. coli [2]; 0.0012 weight % Ag in coating,+
same,surviving bacteria (growth),E. coli [2]; 0.003 weight % Ag in coating,+
same,surviving bacteria (growth),E. coli [2]; 0.006 weight % Ag in coating,+
same,surviving bacteria (growth),E. coli [2]; 0.012 weight % Ag in coating,+
same,surviving bacteria (growth),E. coli [2]; 0.03 weight % Ag in coating,+
same,surviving bacteria (growth),E. coli [2]; 0.06 weight % Ag in coating,−
same,surviving bacteria (growth),E. coli [2]; 0.12 weight % Ag in coating,−
same,killing of S. aureus,"[3]; each of the surfaces (metal plate, wall paper, vinyl tile), 24 h contact time",Complete killing
same,"CFU/mL, Avg","[3]; metal plate, 0 h contact time",3.90E+04 CFU/mL
same,"CFU/mL, Avg","[3]; metal plate, 24 h contact time",0.00E+00 CFU/mL
same,"CFU/mL, Run #1-#2","[3]; metal plate, 24 h contact time",0.00E+00 CFU/mL
same,"CFU/mL, Avg","[3]; vinyl tile, 0 h contact time",1.25E+05 CFU/mL
same,"CFU/mL, Avg","[3]; vinyl tile, 24 h contact time",0.00E+00 CFU/mL
same,"CFU/mL, Run #1-#2","[3]; vinyl tile, 24 h contact time",0.00E+00 CFU/mL
same,"CFU/mL, Avg","[3]; wall-paper, 0 h contact time",9.75E+04 CFU/mL
same,"CFU/mL, Avg","[3]; wall-paper, 24 h contact time",0.00E+00 CFU/mL
same,"CFU/mL, Run #1-#2","[3]; wall-paper, 24 h contact time",0.00E+00 CFU/mL
same,silver level at which partial growth is observed,S. aureus; laboratory acrylic clearcoat,0.0012 % Ag w/w
same,surviving bacteria (growth),S. aureus; 0.0012 weight % Ag in coating,P
same,surviving bacteria (growth),S. aureus; 0.003 weight % Ag in coating,−
same,surviving bacteria (growth),S. aureus; 0.006 weight % Ag in coating,−
same,surviving bacteria (growth),S. aureus; 0.012 weight % Ag in coating,−
same,surviving bacteria (growth),S. aureus; 0.03 weight % Ag in coating,−
same,surviving bacteria (growth),S. aureus; 0.06 weight % Ag in coating,−
same,surviving bacteria (growth),S. aureus; 0.12 weight % Ag in coating,−
same,"CFU/mL, Average","[4]; acetate, 0 h contact time",3.08E+05 CFU/mL
same,"CFU/mL, Average","[4]; acetate, 24 h contact time",0.00E+00 CFU/mL
same,"CFU/mL, Run #1-#4","[4]; acetate, 24 h contact time",0.00E+00 CFU/mL
same,"CFU/mL, Average","[4]; cotton, 0 h contact time",2.53E+05 CFU/mL
same,"CFU/mL, Average","[4]; cotton, 24 h contact time",0.00E+00 CFU/mL
same,"CFU/mL, Run #1-#4","[4]; cotton, 24 h contact time",0.00E+00 CFU/mL
same,E. coli eradication,"[4]; each fabric except silk, 0.06% silver solution sprayed, 24 h contact time",complete eradication
same,attenuation of E. coli growth,"[4]; fabrics, 0.06% silver solution sprayed, 0 h contact time (5-10 minutes)",do not significantly attenuate
same,attenuation of E. coli growth,"[4]; linen and polyester, 0.06% silver solution sprayed, 0 h contact time",partial attenuation
same,"CFU/mL, Average","[4]; linen, 0 h contact time",1.46E+05 CFU/mL
same,"CFU/mL, Average","[4]; linen, 24 h contact time",0.00E+00 CFU/mL
same,"CFU/mL, Run #1-#4","[4]; linen, 24 h contact time",0.00E+00 CFU/mL
same,"CFU/mL, Average","[4]; polyester, 0 h contact time",9.10E+04 CFU/mL
same,"CFU/mL, Average","[4]; polyester, 24 h contact time",0.00E+00 CFU/mL
same,"CFU/mL, Run #1-#4","[4]; polyester, 24 h contact time",0.00E+00 CFU/mL
same,"CFU/mL, Average","[4]; rayon, 0 h contact time",2.88E+05 CFU/mL
same,"CFU/mL, Average","[4]; rayon, 24 h contact time",3.25E+05 CFU/mL
same,effect on E. coli,[4]; 0 h contact time (5-10 minutes),neither organism was significantly affected
same,effect on E. coli,[4]; 24 h contact,eradicated completely
